Measurements taken from article PMC9618136.

What was measured:
[1] = molecular target: OsExo70F3, N-terminally truncated, purified (rice); assay: ITC; conditions: domain or fragment
[2] = molecular target: OsExo70F3, N-terminally truncated, purified (rice); assay: ITC; conditions: domain or fragment; remark: listed apart in the source

In the case of “AVR-Pii effector domain (residues 20 to 70), purified”, the Kd [1] is reported as 2.79 nM and the Kd [2] is reported as 4.19 nM.
